Pooled drug test results. Numbers come from NIAID ChemDB, via PubChem.

All rows: whole-cell or culture tests

Blank or dashed fields: not listed here. A number after MIC or MFC names an inhibition level or a share of isolates. Percent inhibition refers to the dose given; in toxicity tests it is the harm to the cells. Lines come from different laboratories, so protocols vary. a–b is a range or a potency band.

compound,strain,read-out,mutations,dose,conditions,species,method,value
Cc1ccc2nc(C)c(C(=O)NCc3ccc(-c4ccc(C(F)(F)F)cc4)cc3)n2c1,-,inhibition,-,0.0022 µM,-,Mycobacterium avium,fluorescence,85%
CCCCCCCCCCCCCCCCCCCOC(=O)NC(CCC(=O)O)(CCC(=O)O)CCC(=O)O,EO-P-1,MIC,-,-,-,Mycobacterium chelonae,-,5 µg/mL
CCc1nc2cc(F)ccn2c1C(=O)NCc1ccc(C2CCN(c3ccc(C(F)(F)F)cc3)CC2)cc1F.Cl,-,inhibition,-,0.0024 µM,-,Mycobacterium avium,fluorescence,85%
CO[C@@]1(NC(=O)CSCC#N)C(=O)N2C(C(=O)O)=C(CSc3nnnn3C)CS[C@@H]21,AO5,MIC,-,-,-,Mycobacterium fortuitum,-,6.25 µg/mL
CC[C@H]1OC(=O)[C@H](C)[C@@H](O[C@H]2C[C@@](C)(OC)[C@@H](OC(C)=O)[C@H](C)O2)[C@H](C)[C@@H](O[C@@H]2O[C@H](C)C[C@H](N(C)C)[C@H]2O)C(C)(O)C[C@@H](C)/C(=N\OCCc2cccs2)[C@H](C)[C@@H](O)[C@]1(C)O,20039 (clarithromycin-susceptible),MIC,-,-,-,Mycobacterium avium complex,-,1.56 µg/mL
CCCCCCCCCCCCCCCCCCCC(=O)NC(CCC(=O)O)(CCC(=O)O)CCC(=O)O,EO-P-1,MIC,-,-,-,Mycobacterium chelonae,-,3 µg/mL
O=c1oc2ccc(Br)cc2c(=S)n1-c1ccc(C(F)(F)F)cc1,6509/96,MIC,-,-,14 d,Mycobacterium kansasii,-,8 µM
CCCCCCCCCCCCCCCCNC(=O)NC(CCC(=O)O)(CCC(=O)O)CCC(=O)O,ATCC 927,MIC,-,-,-,Mycobacterium marinum,-,216 µg/mL
COc1ccc2oc(=S)n(-c3ccc(Cl)cc3)c(=S)c2c1,6509/96,MIC,-,-,14 d,Mycobacterium kansasii,-,16 µM
O=C(NCc1ccc(N2CCOCC2)cc1C(F)(F)F)c1c(Cl)nc2ccccn12,-,MIC50,-,-,-,Mycobacterium ulcerans,fluorescence,>10 µg/mL
C[C@@H]1CN(c2c(F)c(N)c3c(=O)c(C(=O)O)cn(C4CC4)c3c2F)C[C@H](C)N1,ATCC 11758,MIC,-,-,-,Mycobacterium phlei,broth dilution / visual reading,0.3 µg/mL
CO[C@H]1/C=C/O[C@@]2(C)Oc3c(C)c(O)c4c(O)c(c5c(c4c3C2=O)NC2(CCN(CC(C)C)CC2)N=5)=NC(=O)/C(C)=C\C=C\[C@H](C)[C@H](O)[C@@H](C)[C@@H](O)[C@@H](C)[C@H](OC(C)=O)[C@@H]1C,15-Feb,MIC,-,-,-,Mycobacterium avium intracellulare,-,0.25 µg/mL
CC[C@H]1OC(=O)[C@H](C)[C@@H](O[C@H]2C[C@@](C)(OC)[C@@H](OC(C)=O)[C@H](C)O2)[C@H](C)[C@@H](O[C@@H]2O[C@H](C)C[C@H](N(C)C)[C@H]2O)C(C)(O)C[C@@H](C)/C(=N\OCCC2CCCCC2)[C@H](C)[C@@H](O)[C@]1(C)O,20039 (clarithromycin-susceptible),MIC,-,-,-,Mycobacterium avium complex,-,3.13 µg/mL
Cc1nc2ccc(Cl)cn2c1C(=O)NCc1ccc(N(C)C)cc1,-,MIC50,-,-,-,Mycobacterium ulcerans,fluorescence,0.01–0.1 µg/mL
CCc1nc2cc(F)ccn2c1C(=O)NCc1ccc(N2CCN(c3ccc(OC(F)(F)F)cc3)[C@@H](C)C2)c(Cl)c1.Cl,-,inhibition,-,0.002 µM,-,Mycobacterium avium,fluorescence,85%
C[C@H]1c2cccc(O)c2C(O)=C2C(=O)[C@]3(O)C(O)=C(C(N)=O)C(=O)[C@@H](N(C)C)[C@@H]3[C@@H](O)[C@@H]21,20 strains,MIC90,-,-,-,Mycoplasma hominis,-,0.05 µg/mL
Cc1ccn2c(C(=O)NCc3ccc(C4CCN(c5ccc(OC(F)(F)F)cc5)CC4)c(F)c3)c(C(F)(F)F)nc2c1,-,inhibition,-,0.057 µM,-,Mycobacterium avium,fluorescence,85%
CO[C@@]1(NC(=O)Cc2ccccc2)C(=O)N2C(C(=O)O)=C(COC(C)=O)CSC21,1049,MIC,-,-,-,Mycobacterium fortuitum,-,50 µg/mL
O=C(NNC(=O)c1ccncc1)Nc1ccc(F)cc1Br,My 6509/96,MIC100,-,-,21 d,Mycobacterium kansasii,broth dilution,>125 µM
CCCCCCCCCCCCCCCCCCCCCCC(=O)NC(C)(CCC(=O)O)CCC(=O)O,ATCC 927,MIC,-,-,-,Mycobacterium marinum,-,5 µg/mL
Cc1nc2ccc(Br)cn2c1C(=O)NCc1ccc(OC(F)(F)F)cc1,-,MIC50,-,-,-,Mycobacterium ulcerans,fluorescence,0.1–1 µg/mL
CCCCCCCCc1ccc(NC(=O)NNC(=O)c2ccncc2)cc1,My 6509/96,MIC100,-,-,7 d,Mycobacterium kansasii,broth dilution,125 µM
CO[C@@]1(NC(=O)Cc2cccs2)C(=O)N2C(C(=O)O)=C(COC(N)=O)CS[C@@H]21,4-May,MIC,-,-,-,Mycobacterium fortuitum,-,25 µg/mL
CCCCCCCC(CCCCCCC)OC(=O)NC(CCC(=O)O)(CCC(=O)O)CCC(=O)O,AAy-P-1,MIC,-,-,-,Mycobacterium abscessus,-,216 µg/mL
COc1ccc(-c2c(-c3ccc(OCc4ccc(F)cc4)cc3O)n[nH]c2C(F)(F)F)cc1,-,MIC,-,-,-,Mycobacterium marinum,visual reading,>50 µg/mL
Fc1cc(Br)ccc1Nc1nnc(-c2ccncc2)o1,My 235/80,MIC100,-,-,7 d,Mycobacterium kansasii,broth dilution,>125 µM
CCCCCCCCCC(CCCCCCCCC)OC(=O)NC(CCC(=O)O)(CCC(=O)O)CCC(=O)O,EO-P-1,MIC,-,-,-,Mycobacterium chelonae,-,54 µg/mL
Nc1ccc(S(=O)(=O)c2ccc(N)cc2)cc1,DW20,MIC,-,-,-,Mycobacterium avium complex,-,64 µg/mL
CCc1nc2ccc(Cl)cn2c1C(=O)NCc1ccc(N2CCN(c3ncc(OC(F)(F)F)cc3F)[C@@H](C)C2)c(F)c1.Cl,-,inhibition,-,0.035 µM,-,Mycobacterium avium,fluorescence,85%
O=c1oc2ccc(Br)cc2c(=S)n1-c1ccc(F)cc1,My 235/80,MIC,-,-,14 d,Mycobacterium kansasii,-,8 µM
CC[C@H]1OC(=O)[C@H](C)[C@@H](OC2C[C@@](C)(OC)[C@@H](O)[C@H](C)O2)[C@H](C)[C@@H](O[C@@H]2O[C@H](C)C[C@H](N(C)C)[C@H]2O)C(C)(O)C[C@@H](C)/C(=N\OCCCCc2ccccc2)[C@H](C)[C@@H](O)[C@]1(C)O,20039 (clarithromycin-susceptible),MIC,-,-,-,Mycobacterium avium complex,-,1.56 µg/mL
CO[C@H]1/C=C/O[C@@]2(C)Oc3c(C)c(O)c4c(=O)c(c5oc6cc(N7CCN(CC(C)C)CC7)cc(=O)c6nc5c4c3=C2O)NC(=O)/C(C)=C\C=C\[C@H](C)[C@H](O)[C@@H](C)[C@@H](O)[C@@H](C)[C@H](OC(C)=O)[C@@H]1C,Isolate 842,MIC,-,-,-,Mycobacterium ulcerans,-,0.012 µg/mL
O=c1oc2ccc(Br)cc2c(=S)n1-c1ccc(Br)cc1,6509/96,MIC,-,-,21 d,Mycobacterium kansasii,-,4 µM
CCCCOc1ccc(N2CCC(c3ccc(CNC(=O)c4c(CC)nc5ccc(Cl)cn45)cc3F)CC2)nc1.Cl,-,inhibition,-,0.037 µM,-,Mycobacterium avium,fluorescence,85%
S=c1oc2ccc(Br)cc2c(=S)n1-c1ccccc1,My 235/80,MIC,-,-,21 d,Mycobacterium kansasii,-,2 µM
CCCCCCCCCCCCCCCCCCCCC(=O)NC(C)(CCC(=O)O)CCC(=O)O,EO-P-1,MIC,-,-,-,Mycobacterium chelonae,-,14 µg/mL
O=C(NNC(=O)c1ccncc1)Nc1ccc(F)c(C(F)(F)F)c1,My 235/80,MIC100,-,-,7 d,Mycobacterium kansasii,broth dilution,125 µM
Cc1[nH]nc(-c2ccc(O)cc2O)c1-c1ccc(Br)cc1,-,MIC,-,-,-,Mycobacterium marinum,visual reading,50 µg/mL
CC[C@H]1OC(=O)[C@H](C)[C@@H](OC2C[C@@](C)(OC)[C@@H](O)[C@H](C)O2)[C@H](C)[C@@H](O[C@@H]2O[C@H](C)C[C@H](N(C)C)[C@H]2O)C(C)(O)C[C@@H](C)/C(=N\OCCCCCc2ccccc2)[C@H](C)[C@@H](O)[C@]1(C)O,20039 (clarithromycin-susceptible),MIC,-,-,-,Mycobacterium avium complex,-,3.13 µg/mL
CCc1nc2ccc(Cl)cn2c1C(=O)NCc1ccc(N2CCC(c3ccc(OC(F)(F)F)cc3)CC2)cc1,-,MIC50,bd oxidase complemented,-,-,Mycobacterium bovis BCG,broth dilution,0.0029 µM
NNC(=O)c1ccncc1,My 235/80,MIC100,-,-,14 d,Mycobacterium kansasii,broth dilution,>250 µM
CC[C@H]1OC(=O)[C@H](C)[C@@H](OC(=O)Cc2ccncc2)[C@H](C)[C@@H](O[C@@H]2O[C@H](C)C[C@H](N(C)C)[C@H]2O)C(C)(O)C[C@@H](C)/C(=N\OCCCOc2ccccc2)[C@H](C)[C@@H](O)[C@]1(C)O,20039 (clarithromycin-susceptible),MIC,-,-,-,Mycobacterium avium complex,-,6.25 µg/mL
Cc1ccc(-n2c(=S)oc3ccc(F)cc3c2=S)cc1,My 235/80,MIC,-,-,14 d,Mycobacterium kansasii,-,8 µM
CO[C@@]1(NC(=O)C(C(=O)O)c2ccc(O)cc2)C(=O)N2C(C(=O)O)=C(CSc3nnnn3C)CO[C@@H]21,1030-8,MIC,-,-,-,Mycobacterium fortuitum,-,50 µg/mL
CCc1nc2ccc(F)cn2c1C(=O)NCc1ccc(N2CCN(c3ccc(OC(F)(F)F)cc3)[C@@H](C)C2)c(F)c1,-,inhibition,-,0.008 µM,-,Mycobacterium avium,fluorescence,85%
CC[C@H]1OC(=O)[C@H](C)[C@@H](O[C@H]2C[C@@](C)(OC)[C@@H](OC(C)=O)[C@H](C)O2)[C@H](C)[C@@H](O[C@@H]2O[C@H](C)C[C@H](N(C)C)[C@H]2OC(=O)NN2CCCCC2)C(C)(O)C[C@@H](C)/C(=N\OCCCC2CCCCC2)[C@H](C)[C@@H](O)[C@]1(C)O,20039 (clarithromycin-susceptible),MIC,-,-,-,Mycobacterium avium complex,-,3.13 µg/mL
CCOc1ccc(N2CCN(c3ccc(CNC(=O)c4c(CC)nc5ccc(Cl)cn45)cc3F)C[C@@H]2C)cc1OC.Cl,-,inhibition,-,0.69 µM,-,Mycobacterium avium,fluorescence,85%
Cc1ccc(-n2c(=O)oc3ccc(C)cc3c2=S)cc1,6509/96,MIC,-,-,14 d,Mycobacterium kansasii,-,2 µM
Oc1cc(OCc2ccccc2)ccc1-c1n[nH]c(C(F)(F)F)c1-c1ccc(Br)cc1,-,MIC,-,-,-,Mycobacterium marinum,visual reading,12.5 µg/mL
Cc1ccn2c(C(=O)NCc3ccc(-c4ccc(Cl)cc4)cc3)c(C)nc2c1,-,MIC50,-,-,-,Mycobacterium ulcerans,fluorescence,0.001–0.01 µg/mL
Cc1ccc2oc(=O)n(-c3ccc(F)cc3)c(=S)c2c1,6509/96,MIC,-,-,21 d,Mycobacterium kansasii,-,8 µM
CC1(C)N=C(N)N=C(N)N1OCCCOc1cc(Cl)c(Cl)cc1Cl,1960,MIC,-,-,-,Mycobacterium avium complex,-,1 µg/mL
COc1ccccc1-c1c(-c2ccc(OCc3ccc(C)cc3)cc2O)n[nH]c1C(F)(F)F,-,MIC,-,-,-,Mycobacterium marinum,visual reading,>50 µg/mL
COc1ccc(Nc2nnc(-c3ccncc3)o2)cc1,My 235/80,MIC100,-,-,14 d,Mycobacterium kansasii,broth dilution,>125 µM
CO[C@@]1(NC(=O)CCCC(N)C(=O)O)C(=O)N2C(C(=O)O)=C(COC(C)=O)CSC21,1260,MIC,-,-,-,Mycobacterium fortuitum,-,>100 µg/mL
Cc1ccc2oc(=O)n(-c3ccc(Cl)c(Cl)c3)c(=S)c2c1,My 235/80,MIC,-,-,14 d,Mycobacterium kansasii,-,4 µM
CCC(=O)O[C@H]1[C@H](C)[C@@H](O[C@@H]2O[C@H](C)C[C@H](N(C)C)[C@H]2O)C(C)(O)C[C@@H](C)/C(=N\OCCCOc2ccccc2)[C@H](C)[C@@H](O)[C@](C)(O)[C@@H](CC)OC(=O)[C@@H]1C,20096 (clarithromycin-resistant),MIC,-,-,-,Mycobacterium avium complex,-,25 µg/mL